Results of unrelated studies side by side (data: NIAID ChemDB).

Shared fields: growth or infection tests; organism: Mycobacterium tuberculosis

a–b is a range or a potency band. MIC bound comes from a single tested concentration. Percent inhibition refers to the dose given; in toxicity tests it is the harm to the cells. Rows are shuffled and stem from different studies. ECn is the concentration giving n% inhibition of infection, replication or growth. An empty or dashed field is not shown.

smiles | dose | strain or isolate | read-out | method | cells | value
O=C(Nc1ccc([N+](=O)[O-])cc1)c1ccccc1O | - | CNCTC MY 331/8 | MIC | - | - | 16 µM
O=C(/C=C/c1ccccc1)c1ccc(Cl)cc1O | - | H37Rv | EC50 | - | - | <12.5 µg/mL
C[C@]1(COc2ccc(OC(F)(F)F)cc2)Cn2cc([N+](=O)[O-])nc2O1 | - | H37Rv | MIC | - | - | 0.39 µg/mL
Cc1ccc2oc(=O)n(-c3cccc([N+](=O)[O-])c3)c(=O)c2c1 | - | CNCTC MY331/88 | MIC | - | - | 32 µM
O=C1c2c(O)cc(O)cc2OC(c2ccc(O)cc2)C1c1c(O[C@@H]2O[C@H](CO)[C@@H](O)[C@H](O)[C@H]2O)cc(O)c2c(=O)cc(-c3ccc(O)cc3)oc12 | 12.5 µg/mL | H37Rv | inhibition | - | - | 0%
CCOC(=O)c1ccc(NC(=O)C(CC(=O)Nc2ccc(C)cc2)C(C)=O)cc1 | 30 µg/mL | H37Rv | inhibition | - | - | 0%
COc1ccc(C2CC(=O)c3c(OC)cc(OC)c(I)c3O2)cc1 | - | H37Rv | EC50 | - | - | >12.5 µg/mL
N#Cc1ccc(Cn2nnc(-c3ccc(S(N)(=O)=O)cc3)n2)cc1 | - | H37Rv | MIC | resazurin | - | 1–5 µM
Nc1ccc(/C(=N/NC(=O)C(=O)N/N=C(\c2ccccc2)c2ccc(N)cc2)c2ccccc2)cc1 | 12.5 µg/mL | H37Rv | inhibition | BACTEC | - | 9%
O=c1oc2ccc(F)cc2c(=O)n1-c1cccc([N+](=O)[O-])c1 | - | CNCTC MY331/88 | MIC | - | - | 31 µM
c1ccc(CNCc2c[nH]c3ccccc23)cc1 | - | H37Ra | MIC | - | - | 32 µg/mL
O=C(Nc1ccc(F)cc1)c1ncccc1O | - | CNCTC MY 331/8 | MIC | - | - | 125 µM
O=C(O)c1ccc2c(c1)C(=O)CC(c1ccccc1)O2 | - | - | EC50 | - | - | >12.5 µg/mL
CCOC(=O)c1ccc(NC(=O)C(CC(=O)Nc2cccc3ccccc23)C(C)=O)cc1 | 30 µg/mL | H37Rv | inhibition | - | - | 0%
COc1ccc2c(=O)n(-c3ccc(Br)cc3)c(=O)oc2c1 | - | CNCTC MY331/88 | MIC | - | - | 32 µM
O=C(NCc1cccc([N+](=O)[O-])c1)c1ncccc1S | - | CNCTC MY 331/8 | MIC | - | - | 8 µM
O=C(/C=C/c1ccccc1)c1cccc(I)c1O | 12.5 µg/mL | H37Rv | inhibition | - | - | 0%
CCCCc1cn(CC(O)COc2ccc3c(c2)OC2(CCCCC2)CC3=O)nn1 | - | H37Rv | MIC | agar | - | 12.5 µg/mL
O[C@]12C=C(c3nccc4c3[nH]c3ccccc34)[C@@H]3CCN(CCCC/C=C/CC1)C[C@@]31C[C@@H]3/C=C\CCCCN3C12 | - | H37Rv | MIC | - | - | <12.5 µg/mL
CCn1cc(C(=O)N=Nc2c(O)[nH]c3ccc(Br)cc23)c(=O)c2ccc(C)nc21 | - | - | MIC | - | - | 200 µg/mL
COc1ccccc1/C=N/NC(=O)Cc1csc2nc(-c3ccccc3)cn12 | - | H37Rv | MIC | - | - | >12.5 µg/mL
O=C(Nc1ccc(F)cc1)c1ccccc1O | - | CNCTC MY 331/8 | MIC | - | - | 62.5 µM
CC(=O)C(CC(=O)Nc1ccc(C)cc1)C(=O)Nc1cccc2ccccc12 | 30 µg/mL | H37Rv | inhibition | - | - | 0%
CCOC(=O)C1=C(C(=O)c2ccc(OC)cc2)C(c2ccc([N+](=O)[O-])cc2)C(C(=O)c2ccc(OC)cc2)=C(C(=O)OCC)N1 | 12.5 µg/mL | H37Rv | inhibition | BACTEC | - | 55%
O=C(Cc1csc2nc(-c3ccccc3)cn12)N/N=C/c1ccc([N+](=O)[O-])cc1 | 12.5 µg/mL | H37Rv | inhibition | - | - | 64%
CO[C@H]1/C=C/O[C@@]2(C)Oc3c(C)c(O)c4c(O)c(c(/C=N/N5CCN(C)CC5)c(O)c4c3C2=O)NC(=O)/C(C)=C\C=C\[C@H](C)[C@H](O)[C@@H](C)[C@@H](O)[C@@H](C)[C@H](OC(C)=O)[C@@H]1C | - | 12761 | MIC | - | - | 0.06 µg/mL
COc1ccc2c(=O)n(-c3cccc(Cl)c3)c(=O)oc2c1 | - | CNCTC MY331/88 | MIC | - | - | 8 µM
Nc1nc2c(c(-c3ccccc3Cl)n1)COC/C2=C/c1ccccc1Cl | - | H37Rv | MIC bound | BACTEC | - | ≤12.5 µg/mL
CCCCc1cn(CC(O)COc2ccc3c(c2)OC2(CCN(C(=O)OC(C)(C)C)CC2)CC3=O)nn1 | - | H37Rv | MIC | agar | - | 25 µg/mL
Cc1[nH]nc(C(=O)NN)c1[N+](=O)[O-] | - | H37Rv | MIC bound | BACTEC | - | >12.5 µg/mL
O=C(Cc1csc2nc(-c3ccccc3)cn12)N/N=C/c1cc(Br)ccc1O | 12.5 µg/mL | H37Rv | inhibition | - | - | 0%
O=C(Nc1cccc(Cl)c1)c1ncccc1O | - | CNCTC MY 331/8 | MIC | - | - | 62.5 µM
O=C1CCCN2C(CC1)C[C@@]13CN4CCCC/C=C/CC[C@@](O)(C=C(c5nccc6c5[nH]c5c(O)cccc56)[C@H]1CC4)[C@@H]23 | - | H37Rv | MIC | - | - | <12.5 µg/mL
Cc1ccc2c(=O)n(-c3ccc(Br)cc3)c(=O)oc2c1 | - | CNCTC MY331/88 | MIC | - | - | 16 µM
N/C(=N\N=C\c1ccc(Cl)c(Cl)c1)c1ccccn1 | - | H37Rv | MIC | - | - | 256 µg/mL
COc1ccc2c(=O)n(-c3cccc(F)c3)c(=O)oc2c1 | - | CNCTC MY331/88 | MIC | - | - | 16 µM
O=C(NCCO)c1cccnc1 | - | H37Rv | MIC bound | BACTEC | - | >12.5 µg/mL
O=C(Nc1ccc(Cl)cc1)c1ccccc1O | - | CNCTC MY 331/8 | MIC | - | - | 31 µM
O=C(Cc1csc2nc(-c3ccccc3)cn12)N/N=C/c1c(Cl)cccc1Cl | - | H37Rv | MIC | - | - | >12.5 µg/mL
Cc1ccc(/C=N/N=C(/N)c2ccccn2)cc1 | - | H37Rv | MIC | - | - | 16 µg/mL
Cn1c2ccc([N+](=O)[O-])cc2c(=O)n1Cc1ccccc1F | 6.25 µg/mL | H37Rv | inhibition | resazurin | - | 8%
Cc1ccn2c(C(=O)NCc3ccc(C(=O)N4CCN(C5NC(=O)c6cc(C(F)(F)F)cc([N+](=O)[O-])c6S5)CC4)cc3)c(C)nc2c1 | - | H37Rv | MIC | resazurin | - | >10 µM
N/C(=N/N=C/c1ccccc1)c1ccccn1 | - | H37Rv | MIC | - | - | 32 µg/mL
O=C(Cc1csc2nc(-c3ccccc3)cn12)N/N=C/c1cccs1 | - | H37Rv | EC50 | - | - | >12.5 µg/mL
Clc1ccc(CNCc2c[nH]c3ccc(Br)cc23)cc1 | - | H37Ra | MIC | - | - | 8 µg/mL
COc1ccc(-n2c(=O)oc3ccccc3c2=O)cc1 | - | CNCTC MY331/88 | MIC | - | - | 62 µM
Cc1nc2nc3n(c(=O)c2nc1C)CCS3 | - | H37Rv | MIC bound | resazurin | - | >6.25 µg/mL
CCn1cc(C(=O)N=Nc2c(O)n(CC)c3ccc(Br)cc23)c(=O)c2ccc(C)nc21 | - | - | MIC | - | - | 100 µg/mL
NCc1c[nH]c2ccccc12 | - | H37Ra | MIC | - | - | 256 µg/mL
Cc1ccc(/C=N/N=C(/N)c2ccccn2)c(C)c1 | - | H37Rv | MIC | - | - | 16 µg/mL
Clc1cccc(CNCc2c[nH]c3ccccc23)c1 | - | H37Ra | MIC | - | - | 8 µg/mL
CC(=O)C(CC(=O)Nc1cccc(C)c1)C(=O)Nc1cccc2ccccc12 | 30 µg/mL | H37Rv | inhibition | - | - | 0%
CO/N=C/c1cc(NC(=S)c2ccoc2C)ccc1Cl | 12.5 µg/mL | H37Rv | inhibition | BACTEC | - | 77%
Clc1cccc(CNCCc2c[nH]c3ccccc23)c1 | - | H37Ra | MIC | - | - | 32 µg/mL
CCOC(=O)c1ccc(NC(=O)C(CC(=O)Nc2cccc(C)c2)C(C)=O)cc1 | 5 µg/mL | H37Rv | inhibition | - | - | 0%
C/C(=N\NC(=O)c1ccncc1)c1cccc(F)c1 | - | H37Rv | MIC | - | VERO | 0.06425 µg/mL
CCOC(=O)c1ccc(NC(=O)C(CC(=O)Nc2ccc(OCC)cc2)C(C)=O)cc1 | 5 µg/mL | H37Rv | inhibition | - | - | 0%
CCn1cc(C(=O)N=Nc2c(O)n(C)c3ccccc23)c(=O)c2ccc(C)nc21 | - | - | MIC | - | - | 200 µg/mL
COc1ccc(-c2cn(CC(O)COc3ccc4c(c3)OC3(CCN(C(=O)OC(C)(C)C)CC3)CC4=O)nn2)cc1 | - | H37Rv | MIC | agar | - | 25 µg/mL
CC(=O)C(CC(=O)Nc1cccc2ccccc12)C(=O)Nc1cccc2ccccc12 | 5 µg/mL | H37Rv | inhibition | - | - | 0%
Cc1c2cc[n+]([O-])cc2c(C)c2c1oc1ccccc12 | - | H37Rv | MIC bound | resazurin | - | <6.25 µg/mL
NC(=O)CNS(=O)(=O)c1ccc(-c2nnn(Cc3ccc(F)cc3)n2)cc1 | - | H37Rv | MIC | resazurin | - | <0.1 µM
O=c1c2ccccc2sc2c([N+](=O)[O-])ccc(NCCNCCO)c12 | - | H37Rv | MIC bound | BACTEC | - | ≤12.5 µg/mL
O=c1oc2ccc(F)cc2c(=O)n1-c1ccc(Br)cc1 | - | CNCTC MY331/88 | MIC | - | - | 4 µM
Fc1cccc(CNCCc2c[nH]c3ccccc23)c1 | - | H37Ra | MIC | - | - | 64 µg/mL
O=C1CC(c2ccccc2)Oc2ccc(Cl)cc21 | - | H37Rv | EC50 | - | - | >12.5 µg/mL
CCn1cc(C(C[N+](=O)[O-])C[N+](=O)[O-])c2ccccc21 | - | H37Ra | MIC | - | - | >128 µg/mL
O=C(NCc1ccc(F)cc1)c1ncccc1S | - | CNCTC MY 331/8 | MIC | - | - | 8 µM
O=S(=O)(NCCO)c1ccc(-c2nnn(Cc3ccc(F)cn3)n2)c(F)c1 | - | H37Rv | MIC | resazurin | - | <0.1 µM
CN(Cc1ccc(Cl)cc1)Cc1c[nH]c2ccccc12 | - | H37Ra | MIC | - | - | 32 µg/mL
O=C(N/N=C/c1ccc(O)cc1O)c1ccncc1 | - | ETA-R | MIC | - | - | >8 µg/mL
CC(=O)C(CC(=O)Nc1ccccc1)C(=O)Nc1cccc2ccccc12 | 30 µg/mL | H37Rv | inhibition | - | - | 0%
Cc1ccc(NCCN(C)C)c2c(=O)c3ccc(O)cc3sc12 | - | H37Rv | MIC | BACTEC | - | 12.5 µg/mL
O=C(/C=C/c1ccc([O-])c(C[O-])c1)c1cccc(O)c1 | - | H37Rv | EC50 | - | - | <12.5 µg/mL
C[C@H](NC(=O)[C@@H]1CCCN1C(=O)OCc1ccccc1)C(=O)O | - | H37Rv | MIC bound | BACTEC | - | >12.5 µg/mL
Cc1ccc(C)c(/C=N/N=C(\N)c2ccccn2)c1 | - | H37Rv | MIC | - | - | 256 µg/mL
COc1ccc(Cn2nnc(-c3ccc(S(=O)(=O)NCC(N)=O)cc3)n2)cc1 | - | H37Rv | MIC | resazurin | - | <0.1 µM
CC(=O)C(N=Nc1nn[nH]n1)C(C)=O | - | H37Rv | MIC bound | - | - | >6.25 µg/mL
NC(=O)CNS(=O)(=O)c1ccc(-c2cn(Cc3ccc(F)cc3)nn2)cc1 | - | H37Rv | MIC | resazurin | - | <0.1 µM
CC(=O)O[C@H]1CO[C@@H]2OC3[C@H](C(C=O)=C[C@@H](O)[C@H]4C5=C(C(C)C)CC[C@@]5(C)CC[C@]34C)[C@]2(O)C1=O | 12.5 µg/mL | H37Rv | inhibition | BACTEC | - | 20%
Fc1cccc(F)c1CNCc1c[nH]c2ccccc12 | - | H37Ra | MIC | - | - | 128 µg/mL
O=C1CC(c2ccccc2)Oc2ccc(F)cc21 | - | - | EC50 | - | - | >12.5 µg/mL
COc1ccc(-c2cn(CC(O)COc3ccc4c(c3)OC3(CCCCC3)CC4=O)nn2)cc1 | - | H37Rv | MIC | agar | - | 12.5 µg/mL
CN(C)CCNc1ccc(NCCN(C)C)c2c1C(=O)c1ncsc1C2=O | 12.5 µg/mL | H37Rv | inhibition | BACTEC | - | 0%
COc1cc(-c2nnn(Cc3ccc(C#N)cc3)n2)ccc1S(=O)(=O)NCCO | - | H37Rv | MIC | resazurin | - | 0.1–1 µM
COc1ccc(S(=O)(=O)N2C(=O)CCC2C(=O)NN)cc1 | - | H37Rv | MIC bound | resazurin | - | >6.25 µg/mL
O=S(=O)(NCCO)c1ccc(-c2cn(Cc3ccc(F)cc3)nn2)cc1 | - | H37Rv | MIC | resazurin | - | <0.1 µM
CC(=O)OCc1cc(=O)n(C)c2c3c4c(cc12)c(C)cc(=O)n4CO3 | - | H37Rv | MIC | - | VERO | 1.6 µg/mL
N#Cc1ccc(/C=N/N=C(\N)c2ccccn2)cc1 | - | H37Rv | MIC | - | - | 256 µg/mL
OCC1OC(O)C(N=Cc2ccccc2O)C(O)C1O | - | H37Rv | MIC bound | BACTEC | - | >12.5 µg/mL
O=c1oc2ccc(Br)cc2c(=O)n1-c1ccccc1 | - | CNCTC MY331/88 | MIC | - | - | 31 µM
CCCCCc1ccc(-c2cn(CC(O)COc3ccc4c(c3)OC3(CCN(C(=O)OC(C)(C)C)CC3)CC4=O)nn2)cc1 | - | H37Rv | MIC | agar | - | 3.13 µg/mL

A second listing of 6 rows from above:

smiles,dose,strain or isolate,read-out,method,cells,value
Cc1ccc(/C=N/N=C(/N)c2ccccn2)cc1,-,H37Rv,MIC,-,-,16 µg/mL
COc1ccc(-c2cn(CC(O)COc3ccc4c(c3)OC3(CCN(C(=O)OC(C)(C)C)CC3)CC4=O)nn2)cc1,-,H37Rv,MIC,agar,-,25 µg/mL
CN(C)CCNc1ccc(NCCN(C)C)c2c1C(=O)c1ncsc1C2=O,12.5 µg/mL,H37Rv,inhibition,BACTEC,-,0%
COc1ccc(S(=O)(=O)N2C(=O)CCC2C(=O)NN)cc1,-,H37Rv,MIC bound,resazurin,-,>6.25 µg/mL
COc1ccc2c(=O)n(-c3ccc(Br)cc3)c(=O)oc2c1,-,CNCTC MY331/88,MIC,-,-,32 µM
COc1ccc(-c2cn(CC(O)COc3ccc4c(c3)OC3(CCCCC3)CC4=O)nn2)cc1,-,H37Rv,MIC,agar,-,12.5 µg/mL